Values from PubChem BioAssay AID504761 (Drosophila RNAi Screening Center, 2011).

- Aim: 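Fly genes whose silencing reduces dengue virus type 2 infection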 (primary screen)
- Cell system: D.Mel-2 cells from Drosophila
- Reagent: long dsRNA against Drosophila genes
- Treatment: infection with dengue virus type 2; dose and infection time not stated
- Measured: 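Per well on two replicate plates, imaging gave the percent of cells positive for viral envelope protein, ranked by infection, and a nuclear count of cells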
- Scale: infection score: higher = more virus-infected cells; cell count: higher = more cells in the well
- Rule for the call: 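Very low infection ranking in both replicate wells (chance probability at most 0.065), then a retest showing infection dropped 1.5-fold or more at p below 0.05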
- Calls: active = confirmed: knock-down lowers infection; inactive = not picked or not confirmed
The screen tested about 22,000 reagents; this is an unselected part of those that have a named target and a result. In the full data, 116 (0.52%) got an active call. 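Calls depend on retest data that are not deposited; infection was ranked per plate without normalising between plates; the unit of the infection score is not given.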 The raw values are shown without normalisation. Names joined by + are all predicted targets of the reagent. Reagent sequences are not shown. Not given: the amount of reagent, the time to read-out.

{"Gene":"CG8475","dsRNA":"DRSC03091","infection score, replicate 1":6.44,"infection score, replicate 2":5.12,"cell count, replicate 1":6134,"cell count, replicate 2":6819,"call":"inactive"}
{"Gene":"bsf","dsRNA":"DRSC02035","infection score, replicate 1":4.99,"infection score, replicate 2":9.41,"cell count, replicate 1":6135,"cell count, replicate 2":5963,"call":"inactive"}
{"Gene":"Gasp","dsRNA":"DRSC12349","infection score, replicate 2":37.8,"cell count, replicate 1":449,"cell count, replicate 2":5148,"call":"inactive"}
{"Gene":"CAH4","dsRNA":"DRSC22433","infection score, replicate 1":0.58,"infection score, replicate 2":0.73,"cell count, replicate 1":6507,"cell count, replicate 2":6943,"call":"inactive"}
{"Gene":"Ada2b","dsRNA":"DRSC16531","infection score, replicate 1":13.1,"infection score, replicate 2":8.44,"cell count, replicate 1":6993,"cell count, replicate 2":6471,"call":"inactive"}
{"Gene":"CG30391","dsRNA":"DRSC21572","infection score, replicate 1":1.92,"infection score, replicate 2":1.51,"cell count, replicate 1":6858,"cell count, replicate 2":7103,"call":"inactive"}
{"Gene":"Cyp4p2","dsRNA":"DRSC07373","infection score, replicate 1":17.9,"infection score, replicate 2":9.39,"cell count, replicate 1":6130,"cell count, replicate 2":6303,"call":"inactive"}
{"Gene":"Cyp4p2","dsRNA":"DRSC26900","infection score, replicate 1":2.35,"infection score, replicate 2":2.84,"cell count, replicate 1":4038,"cell count, replicate 2":6262,"call":"inactive"}
{"Gene":"Rab9Db + Rab9D + Rab9Fa + 1 more","dsRNA":"DRSC17662","infection score, replicate 1":6.13,"infection score, replicate 2":5.09,"cell count, replicate 1":6203,"cell count, replicate 2":6253,"call":"inactive"}
{"Gene":"CG14265","dsRNA":"DRSC18591","infection score, replicate 1":2.98,"infection score, replicate 2":1.17,"cell count, replicate 1":5904,"cell count, replicate 2":6335,"call":"inactive"}
{"Gene":"CG14265","dsRNA":"DRSC29212","infection score, replicate 1":18.9,"infection score, replicate 2":4.35,"cell count, replicate 1":4761,"cell count, replicate 2":598,"call":"inactive"}
{"Gene":"CG6094","dsRNA":"DRSC02927","infection score, replicate 1":4.16,"infection score, replicate 2":5.7,"cell count, replicate 1":6061,"cell count, replicate 2":6787,"call":"inactive"}
{"Gene":"CG6094","dsRNA":"DRSC22705","infection score, replicate 1":8.15,"infection score, replicate 2":4.37,"cell count, replicate 1":5104,"cell count, replicate 2":5588,"call":"inactive"}
{"Gene":"CG6094","dsRNA":"DRSC29084","infection score, replicate 1":27.8,"infection score, replicate 2":14.8,"cell count, replicate 1":4560,"cell count, replicate 2":5267,"call":"inactive"}
{"Gene":"CG31523","dsRNA":"DRSC12009","infection score, replicate 1":1,"infection score, replicate 2":0.44,"cell count, replicate 1":6312,"cell count, replicate 2":6606,"call":"inactive"}
{"Gene":"CG31523","dsRNA":"DRSC12337","infection score, replicate 1":1.01,"infection score, replicate 2":2.46,"cell count, replicate 1":6406,"cell count, replicate 2":6795,"call":"inactive"}
{"Gene":"CG31523","dsRNA":"DRSC27253","infection score, replicate 1":9.51,"infection score, replicate 2":8.32,"cell count, replicate 1":5827,"cell count, replicate 2":6716,"call":"inactive"}
{"Gene":"CG10953","dsRNA":"DRSC28267","infection score, replicate 1":19.7,"infection score, replicate 2":14.1,"cell count, replicate 1":5996,"cell count, replicate 2":5361,"call":"inactive"}
{"Gene":"Ccp84Ad","dsRNA":"DRSC12589","infection score, replicate 1":2.74,"infection score, replicate 2":5.82,"cell count, replicate 1":6267,"cell count, replicate 2":6147,"call":"inactive"}
{"Gene":"Ccp84Ad","dsRNA":"DRSC22854","infection score, replicate 1":0.91,"infection score, replicate 2":13.3,"cell count, replicate 1":5520,"cell count, replicate 2":3734,"call":"inactive"}
{"Gene":"Cyp4e1","dsRNA":"DRSC07370","infection score, replicate 1":16.8,"infection score, replicate 2":4.2,"cell count, replicate 1":6950,"cell count, replicate 2":1859,"call":"inactive"}
{"Gene":"Cyp4e1","dsRNA":"DRSC27154","infection score, replicate 1":8.43,"infection score, replicate 2":24.7,"cell count, replicate 1":6740,"cell count, replicate 2":6487,"call":"inactive"}
{"Gene":"ImpL1","dsRNA":"DRSC11197","infection score, replicate 1":9.41,"infection score, replicate 2":7.46,"cell count, replicate 1":6123,"cell count, replicate 2":6649,"call":"inactive"}
{"Gene":"ImpL1","dsRNA":"DRSC28367","infection score, replicate 1":10.4,"infection score, replicate 2":13.4,"cell count, replicate 1":6094,"cell count, replicate 2":5394,"call":"inactive"}
{"Gene":"spz4","dsRNA":"DRSC02410","infection score, replicate 1":15.1,"infection score, replicate 2":9.12,"cell count, replicate 1":5685,"cell count, replicate 2":5864,"call":"inactive"}
{"Gene":"spz4","dsRNA":"DRSC27274","infection score, replicate 1":2.56,"infection score, replicate 2":12.9,"cell count, replicate 1":7177,"cell count, replicate 2":5413,"call":"inactive"}
{"Gene":"Klp67A + CG34456","dsRNA":"DRSC10420","infection score, replicate 1":0.75,"infection score, replicate 2":0.98,"cell count, replicate 1":6028,"cell count, replicate 2":6298,"call":"inactive"}
